Data as given in PubChem BioAssay AID1224833 (University of Georgia, 2016)
Assay: 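Host factors restraining rotavirus as candidate antiviral genes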 (primary screen). Cell system: monkey MA104 kidney cells. Knock-down reagent: siRNA pool against human genes, 50 nM. Timing: 48 h knock-down before infection; read 24 h after infection. Challenge: infection with rotavirus strain RV3 two days after transfection; infectious dose for this stage not given. Detection: 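Rotavirus antigen per well by fluorescent immunoassay, normalised to non-targeting control wells on each plate and given as a standard z-score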. Scale: z-score vs non-targeting control: higher = more rotavirus replication than with non-targeting control. Rule for the call: In these data the active calls have z-score vs non-targeting control at about -1 or lower, or at about 1 or higher. Meaning of the calls: active = z-score beyond 1 either way; inactive = z-score within 1 of zero.
The deposit covers about 12,000 reagents; below is a part drawn at random. About 5,600 of all reagents (46%) were called active. 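Active calls cover z-scores past 1 in both directions, so they include lowered as well as raised rotavirus replication.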 A number with no mark means an inactive call. Reagent sequences are not shown.

{"target gene": "ZNF585B", "PubChem SID": "SID329582059", "z-score vs non-targeting control": "-1.19 (active)"}
{"target gene": "CNIH4", "PubChem SID": "SID329578656", "z-score vs non-targeting control": "1.44 (active)"}
{"target gene": "TNFSF8", "PubChem SID": "SID329573070", "z-score vs non-targeting control": -0.497}
{"target gene": "DEAF1", "PubChem SID": "SID329577212", "z-score vs non-targeting control": "1.1 (active)"}
{"target gene": "C6orf58", "PubChem SID": "SID329584185", "z-score vs non-targeting control": 0.914}
{"target gene": "SLC26A6", "PubChem SID": "SID329580740", "z-score vs non-targeting control": -0.504}
{"target gene": "RPS28", "PubChem SID": "SID329575205", "z-score vs non-targeting control": -0.952}
{"target gene": "RPL19", "PubChem SID": "SID329575163", "z-score vs non-targeting control": "-1.89 (active)"}
{"target gene": "SLC1A4", "PubChem SID": "SID329575339", "z-score vs non-targeting control": 0.373}
{"target gene": "IRF3", "PubChem SID": "SID329574179", "z-score vs non-targeting control": "-1.28 (active)"}
{"target gene": "ZBP1", "PubChem SID": "SID329581275", "z-score vs non-targeting control": -0.114}
{"target gene": "LMOD3", "PubChem SID": "SID329580008", "z-score vs non-targeting control": "-1.91 (active)"}
{"target gene": "MPHOSPH9", "PubChem SID": "SID329577020", "z-score vs non-targeting control": "-1.76 (active)"}
{"target gene": "LRWD1", "PubChem SID": "SID329583618", "z-score vs non-targeting control": "-2.37 (active)"}
{"target gene": "IL11RA", "PubChem SID": "SID329574149", "z-score vs non-targeting control": "1.75 (active)"}
{"target gene": "ACOXL", "PubChem SID": "SID329579679", "z-score vs non-targeting control": "-1.58 (active)"}
{"target gene": "ERVW-1", "PubChem SID": "SID329578771", "z-score vs non-targeting control": "-1.78 (active)"}
{"target gene": "CD52", "PubChem SID": "SID329573126", "z-score vs non-targeting control": -0.443}
{"target gene": "ARHGAP6", "PubChem SID": "SID329572817", "z-score vs non-targeting control": "-2.26 (active)"}
{"target gene": "ICE2", "PubChem SID": "SID329580943", "z-score vs non-targeting control": "1.21 (active)"}
{"target gene": "ARID1A", "PubChem SID": "SID329576044", "z-score vs non-targeting control": "-1.06 (active)"}
{"target gene": "ULBP3", "PubChem SID": "SID329580889", "z-score vs non-targeting control": -0.361}
{"target gene": "ABI1", "PubChem SID": "SID329576914", "z-score vs non-targeting control": "-1.55 (active)"}
{"target gene": "LHCGR", "PubChem SID": "SID329574297", "z-score vs non-targeting control": -0.967}
{"target gene": "SOWAHC", "PubChem SID": "SID329580756", "z-score vs non-targeting control": "-1.9 (active)"}
{"target gene": "SLC25A29", "PubChem SID": "SID329582461", "z-score vs non-targeting control": 0.689}
{"target gene": "EFCAB11", "PubChem SID": "SID329581927", "z-score vs non-targeting control": "1.45 (active)"}
{"target gene": "KLHL25", "PubChem SID": "SID329580630", "z-score vs non-targeting control": "2.58 (active)"}
{"target gene": "PRR35", "PubChem SID": "SID329582908", "z-score vs non-targeting control": "1.58 (active)"}
{"target gene": "HMOX1", "PubChem SID": "SID329573987", "z-score vs non-targeting control": "-1.65 (active)"}
{"target gene": "COA4", "PubChem SID": "SID329579003", "z-score vs non-targeting control": "2.02 (active)"}
{"target gene": "NDUFB11", "PubChem SID": "SID329579318", "z-score vs non-targeting control": -0.678}
{"target gene": "NFE2L2", "PubChem SID": "SID329574611", "z-score vs non-targeting control": "-1.57 (active)"}
{"target gene": "SLC29A4", "PubChem SID": "SID329583638", "z-score vs non-targeting control": 0.0358}
{"target gene": "EREG", "PubChem SID": "SID329573556", "z-score vs non-targeting control": "-1.55 (active)"}
{"target gene": "TUBB2B", "PubChem SID": "SID329584163", "z-score vs non-targeting control": "-1.36 (active)"}
{"target gene": "PDYN", "PubChem SID": "SID329574793", "z-score vs non-targeting control": 0.256}
{"target gene": "TNNT2", "PubChem SID": "SID329575688", "z-score vs non-targeting control": "-1.22 (active)"}
{"target gene": "RBMY1A1", "PubChem SID": "SID329575095", "z-score vs non-targeting control": "1.56 (active)"}
{"target gene": "TNKS2", "PubChem SID": "SID329581227", "z-score vs non-targeting control": -0.697}
{"target gene": "FN1", "PubChem SID": "SID329573679", "z-score vs non-targeting control": "-1.62 (active)"}
{"target gene": "PLEKHO1", "PubChem SID": "SID329578952", "z-score vs non-targeting control": -0.631}
{"target gene": "ERAS", "PubChem SID": "SID329574040", "z-score vs non-targeting control": "-1.04 (active)"}
{"target gene": "TMOD4", "PubChem SID": "SID329578679", "z-score vs non-targeting control": -0.622}
{"target gene": "OR6Y1", "PubChem SID": "SID329584441", "z-score vs non-targeting control": "-1.6 (active)"}
{"target gene": "GSTP1", "PubChem SID": "SID329573884", "z-score vs non-targeting control": 0.749}
{"target gene": "TMPRSS5", "PubChem SID": "SID329581272", "z-score vs non-targeting control": "-1.04 (active)"}

Sorted by “z-score vs non-targeting control” (highest first): 2 of the entries above
{"target gene": "SLC1A4", "PubChem SID": "SID329575339", "z-score vs non-targeting control": 0.373}
{"target gene": "RPL19", "PubChem SID": "SID329575163", "z-score vs non-targeting control": "-1.89 (active)"}
